According to PMC10464103, “Antibacterial peptide PMAP-37(F34-R), expressed in Pichia pastoris, is effective against pathogenic bacteria and preserves plums” (Microbial Cell Factories, 2023):
Peptide text beside a SMILES is read from it.

Test system: plums
Test: Antiseptic (preservative) effect on plums
Set-up: species or system plum

Compound: CC[C@H](C)[C@H](NC(=O)[C@H](CCCNC(=N)N)NC(=O)[C@H](CCC(=O)O)NC(=O)[C@@H](NC(=O)[C@H](CCCCN)NC(=O)[C@H](CCC(=O)O)NC(=O)CNC(=O)[C@H](CC(C)C)NC(=O)[C@H](CCCNC(=N)N)NC(=O)[C@H](CCCNC(=N)N)NC(=O)CNC(=O)[C@H](CCCNC(=N)N)NC(=O)[C@H](CC(=O)O)NC(=O)[C@H](CO)NC(=O)[C@H](CC(C)C)NC(=O)[C@H](Cc1ccccc1)NC(=O)[C@H](CC(=O)O)NC(=O)[C@H](CCCNC(=N)N)NC(=O)[C@H](CC(C)C)NC(=O)[C@H](CCCNC(=N)N)NC(=O)[C@H](CO)NC(=O)[C@H](CC(C)C)NC(=O)[C@H](CC(C)C)NC(=O)CN)[C@@H](C)CC)C(=O)NCC(=O)N[C@@H](CCC(N)=O)C(=O)N[C@@H](CCCCN)C(=O)N[C@H](C(=O)N[C@@H](CCCCN)C(=O)N[C@@H](CC(=O)O)C(=O)N[C@@H](CC(C)C)C(=O)N[C@@H](CO)C(=O)N[C@@H](CCC(=O)O)C(=O)N[C@@H](CCCNC(=N)N)C(=O)N[C@@H](Cc1ccccc1)C(=O)N[C@@H](CCC(N)=O)C(=O)N[C@@H](CO)C(=O)O)[C@@H](C)CC [PMAP-37(F34-R)] (H-GLLSRLRDFLSDRGRRLGEKIERIGQKIKDLSERFQS-OH; N-terminus and C-terminus assumed)
- weight loss rate of plums (8 d of storage at 30 °C, sprayed with 5 mL of 0.36 µg/mL peptide): 12.22%
- decay rate of plums (8 d of storage at 30 °C, sprayed with 5 mL of 0.36 µg/mL peptide, five plums per group): 60%
- respiratory intensity of plums (storage at 30 °C up to 8 d, 0.36 µg/mL peptide versus sterile water): lower than that of the control group most of the time
